From paper PMC5735676, “Leishmania braziliensis SCD6 and RBP42 proteins, two factors with RNA binding capacity”
A negative result means that nothing was seen under these conditions. At least one verdict rests on a figure or table, not on a statement of the authors. Tags and fusion partners may be left off the protein sequences shown.

Tests used:
[1] = target: T1, rLbSCD6 (Leishmania braziliensis) (UniProt A4HEG4); assay: EMSA; conditions: direct, digoxigenin-labeled antisense lane; EMSA: 10 mM HEPES pH 7.3, 20 mM KCl, 6 mM MgCl2, 1 mM DTT, 0.05% NP-40, 1 ug/ul heparin, 40 U RNaseOUT, room temperature 20 min, 6% native PAGE 0.5x TBE; recombinant protein; residues 1-294
T1 sequence (looked up): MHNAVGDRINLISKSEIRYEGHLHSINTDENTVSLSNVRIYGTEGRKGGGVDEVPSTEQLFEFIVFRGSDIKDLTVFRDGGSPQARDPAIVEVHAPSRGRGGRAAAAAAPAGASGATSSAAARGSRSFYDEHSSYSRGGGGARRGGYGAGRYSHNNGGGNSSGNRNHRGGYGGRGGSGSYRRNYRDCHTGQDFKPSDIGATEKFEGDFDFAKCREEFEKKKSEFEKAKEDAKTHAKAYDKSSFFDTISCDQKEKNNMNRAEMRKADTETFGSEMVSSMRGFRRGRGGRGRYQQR

[2] = target: T2, rLbRBP42 (Leishmania braziliensis) (UniProt A4HIP3); assay: EMSA; conditions: direct, digoxigenin-labeled antisense lane; EMSA: 10 mM HEPES pH 7.3, 20 mM KCl, 6 mM MgCl2, 1 mM DTT, 0.05% NP-40, 1 ug/ul heparin, 40 U RNaseOUT, room temperature 20 min, 6% native PAGE 0.5x TBE; recombinant protein; residues 1-338
T2 sequence (looked up): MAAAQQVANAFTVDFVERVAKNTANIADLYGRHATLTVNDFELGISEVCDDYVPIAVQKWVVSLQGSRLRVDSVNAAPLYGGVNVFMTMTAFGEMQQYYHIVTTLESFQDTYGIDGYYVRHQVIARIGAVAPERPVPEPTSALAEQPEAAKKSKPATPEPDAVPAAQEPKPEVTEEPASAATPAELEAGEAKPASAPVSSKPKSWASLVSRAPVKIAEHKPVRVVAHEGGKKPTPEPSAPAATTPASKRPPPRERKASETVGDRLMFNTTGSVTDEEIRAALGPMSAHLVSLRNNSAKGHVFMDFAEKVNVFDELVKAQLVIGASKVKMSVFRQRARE

UACAGAAAAUAAAAAAACACACACAAAAUAUAAAAAGAGGAAAGCAUGAUU [3' UTR-II.1 antisense]
binding result [1]: no binding | binding result [2]: no binding
